Anti-infective test results gathered from many reports (values: NIAID ChemDB through PubChem).

Common to all: target-level tests

Conditions beyond the fields shown may differ between rows. An empty or dashed field is not shown. Two numbers with a dash give a range or band. Inhibition is in % at the dose shown (toxicity tests: loss of growth or viability). ICn is the concentration giving n% inhibition.

| structure | protein | measure | species | tested at | result |
|---|---|---|---|---|---|
| COc1nc(Nc2ccc3cn[nH]c3c2)nc(N2CCN(CCO)CC2)n1 | DNA polymerase | inhibition | Hepatitis B virus | 0.01 µg/mL | 3% |
| O=C(Nc1ccccc1-c1nc(C(=O)O)c(O)c(=O)[nH]1)c1ccc(OC(F)(F)F)cc1 | HCV polymerase | IC50 | Hepatitis C virus | - | <100 µM |
| Cc1nc(N)sc1-c1ccc2cc(-c3nc4cc(C(=O)O)ccc4n3C3CCCCC3)ccc2n1 | NS5B polymerase | inhibition | Hepatitis C virus | 100 µM | 97.45% |
| CNC(=O)c1c(-c2ccc(F)cc2)oc2cc(N3CCSCC3)c(OC(C)C)cc12 | Nonstructural protein 5B | IC50 | Hepatitis C virus | - | ≤0.5 µM |
| CC[C@@H](C=O)NC(=O)[C@@H]1C[C@@H](NCc2ccccc2)CN1C(=O)[C@@H](NC(=O)[C@@H](NC(=O)c1cnccn1)C(C)C)C(C)C | NS3 protease | Ki | Hepatitis C virus | - | >100 µM |
| O=C(O)c1ccc2c(c1)nc(-c1ccc3nc(-c4cccc(OCC(=O)N5CCCC5)c4)ccc3c1)n2C1CCCCC1 | NS5B polymerase | inhibition | Hepatitis C virus | 33 µM | 95.76% |
| CCOC(=O)C1=CN(N2CCN(c3nc(Nc4ccc5[nH]ncc5c4)nc(OC)n3)CC2)C(SC)N=C1 | Nonstructural protein 5B | inhibition | Hepatitis C virus | 0.1 µg/mL | 0% |
| CC[C@@H](C=O)NC(=O)[C@@H]1C[C@@H](OC(=O)c2ccccc2)CN1C(=O)[C@@H](NC(=O)[C@@H](NC(=O)c1cnccn1)C(C)C)C(C)C | NS3 protease | Ki | Hepatitis C virus | - | 1–100 µM |
| CC(C)(C)OC(=O)Nc1cscc1-c1nc(C(=O)O)c(O)c(=O)[nH]1 | HCV polymerase | IC50 | Hepatitis C virus | - | <25 µM |
| CCCCC(C(=O)O)C(=O)N[C@H](C(=O)N1C[C@H](OCc2ccccc2)C[C@H]1C(=O)N[C@H](C=O)CC)C(C)C | NS3 protease | Ki | Hepatitis C virus | - | >100 µM |
| CNC(=O)c1c(-c2ccc(F)cc2)oc2cc(C(O)C(C)C)c(OC(C)C)cc12 | Nonstructural protein 5B | IC50 | Hepatitis C virus | - | ≤0.5 µM |
| COc1csc(-c2nc(C(=O)O)c(O)c(=O)[nH]2)c1 | HCV polymerase | IC50 | Hepatitis C virus | - | <25 µM |
| O=C(O)c1cccc(COc2ccc(-c3cnc4c(-c5nn[nH]n5)cnn4c3C3CCCCC3)cc2)c1 | RNA-dependent RNA polymerase | IC50 | Hepatitis C virus | - | <1 µM |
| CC[C@@H](C=O)NC(=O)[C@@H]1C[C@@H](OCc2ccccc2)CN1C(=O)[C@@H](NC(=O)c1c(C)noc1C)C(C)C | NS3 protease | Ki | Hepatitis C virus | - | >100 µM |
| COc1nc(Nc2ccc3[nH]ncc3c2)nc(N2CCC(O)CC2)n1 | DNA polymerase | inhibition | Hepatitis B virus | 0.1 µg/mL | 40% |
| CNC(=O)c1c(-c2ccc(F)cc2)oc2cc(N(C)S(=O)(=O)CC3CC3)c(OC)cc12 | Nonstructural protein 5B | IC50 | Hepatitis C virus | - | ≤0.5 µM |
| COc1nc(Nc2ccc3[nH]ncc3c2)nc(N2CCOCC2)n1 | DNA polymerase | inhibition | Hepatitis B virus | 0.01 µg/mL | 30% |
| O=C(CSCc1ccncc1)Nc1ccsc1-c1nc(C(=O)O)c(O)c(=O)[nH]1 | HCV polymerase | IC50 | Hepatitis C virus | - | <25 µM |
| Cc1nn(-c2ccccc2)c(C)c1-c1ccc2cc(-c3nc4cc(C(=O)O)ccc4n3C3CCCCC3)ccc2n1 | NS5B polymerase | inhibition | Hepatitis C virus | 33 µM | 99.74% |
| COc1cccc(NC(=O)Nc2cscc2-c2nc(C(=O)O)c(O)c(=O)[nH]2)c1 | HCV polymerase | IC50 | Hepatitis C virus | - | <25 µM |
| COc1nc(NCCO)nc(Nc2ccc3cn[nH]c3c2)n1 | Nonstructural protein 5B | inhibition | Hepatitis C virus | 10 µg/mL | 81% |
| COc1ccc(-c2ccc(CN)cc2)c(-c2ccc3cc(-c4nc5cc(C(=O)O)ccc5n4C4CCCCC4)ccc3n2)c1 | NS5B polymerase | inhibition | Hepatitis C virus | 33 µM | 95.54% |
| COc1cc(COc2cccc(-c3cnc4c(C(=O)O)cnn4c3C3CCCCC3)c2)cc(OC)c1 | RNA-dependent RNA polymerase | IC50 | Hepatitis C virus | - | 1–10 µM |
| CNC(=O)c1c(-c2ccc(F)cc2)oc2cc(N(C)C)c(OC(C)C)cc12 | Nonstructural protein 5B | IC50 | Hepatitis C virus | - | ≤0.5 µM |
| Nc1ccccc1-c1nc(C(=O)O)c(O)c(=O)[nH]1 | HCV polymerase | IC50 | Hepatitis C virus | - | <100 µM |
| COc1nc(Nc2ccc3[nH]ncc3c2)nc(NC2CC2)n1 | Nonstructural protein 5B | inhibition | Hepatitis C virus | 1 µg/mL | 38% |
| CC[C@@H](C=O)NC(=O)[C@@H]1C[C@@H](NC(=O)NCc2ccccc2)CN1C(=O)[C@@H](NC(=O)[C@@H](NC(=O)c1cnccn1)C(C)C)C(C)C | NS3 protease | Ki | Hepatitis C virus | - | 1–100 µM |
| CC(=O)OCOC(=O)c1nc(-c2ccc(-c3sccc3NC(=O)c3ccccc3)cc2)[nH]c(=O)c1O | HCV polymerase | IC50 | Hepatitis C virus | - | <50 µM |
| CC[C@@H](C=O)NC(=O)[C@@H]1C[C@@H](OCc2ccccc2)CN1C(=O)[C@@H](NC(=O)C(OC)c1ccccc1)C(C)C | NS3 protease | Ki | Hepatitis C virus | - | >100 µM |
| CCOC(=O)c1cc2nc(-c3ccc(Cl)cc3)cc(-c3ccc(Cl)cc3)n2n1 | RNA-dependent RNA polymerase | IC50 | Hepatitis C virus | - | >10 µM |
| CCN(CC)C(=O)COc1cc2c(C(=O)NC)c(-c3ccc(F)cc3)oc2cc1N(C)S(C)(=O)=O | Nonstructural protein 5B | IC50 | Hepatitis C virus | - | ≤0.5 µM |
| O=C(O)c1cc2nc(-c3ccc(C(F)(F)F)cc3)cc(-c3ccccc3F)n2n1 | RNA-dependent RNA polymerase | IC50 | Hepatitis C virus | - | >10 µM |
| CCOC(=O)C1CCN(c2nc(Nc3ccc4[nH]ncc4c3)nc(OC)n2)CC1 | DNA polymerase | inhibition | Hepatitis B virus | 0.01 µg/mL | 6% |
| CC[C@@H](C=O)NC(=O)[C@@H]1C[C@@H](OCc2noc(-c3ccccc3OC)n2)CN1C(=O)[C@@H](NC(=O)[C@@H](NC(=O)c1cnccn1)C(C)C)C(C)C | NS3 protease | Ki | Hepatitis C virus | - | 1–100 µM |
| O=C(O)c1cc2nc(-c3ccc(Cl)cc3)cc(NC3CCCCC3)n2n1 | RNA-dependent RNA polymerase | IC50 | Hepatitis C virus | - | >10 µM |
| CC(NC(=O)Nc1ccccc1-c1nc(C(=O)O)c(O)c(=O)[nH]1)c1cccc2ccccc12 | HCV polymerase | IC50 | Hepatitis C virus | - | <100 µM |
| COc1nc(NCCc2c[nH]c3ccccc23)nc(Nc2ccc3[nH]ncc3c2)n1 | DNA polymerase | inhibition | Hepatitis B virus | 0.1 µg/mL | 32% |
| O=C(O)c1ccc2c(c1)nc(-c1ccc3nc(-c4cc(F)ccc4-c4ccc(Cl)cc4)ccc3c1)n2C1CCCCC1 | NS5B polymerase | inhibition | Hepatitis C virus | 33 µM | 101% |
| CC[C@@H](C=O)NC(=O)[C@@H]1C[C@@H](OCc2ccccc2)CN1C(=O)[C@@H](NC(=O)[C@@H](NC(=O)CO)C(C)C)C(C)C | NS3 protease | Ki | Hepatitis C virus | - | 1–100 µM |
| O=C(O)c1ccc2c(c1)nc(-c1ccc3nc(-c4ccccc4)cc(Oc4ccc5ccc(O)cc5c4)c3c1)n2C1CCCCC1 | NS5B polymerase | inhibition | Hepatitis C virus | 100 µM | 100.7% |
| COc1nc(Nc2ccc3cn[nH]c3c2)nc(NN2CCOCC2)n1 | DNA polymerase | inhibition | Hepatitis B virus | 0.1 µg/mL | 44% |
| CNC(=O)c1c(-c2ccc(F)cc2)oc2cc(N(C)S(C)(=O)=O)c(OCc3nccs3)cc12 | Nonstructural protein 5B | IC50 | Hepatitis C virus | - | ≤0.5 µM |

A second listing of 5 rows from above:

structure	protein	measure	species	tested at	result
CNC(=O)c1c(-c2ccc(F)cc2)oc2cc(C(O)C(C)C)c(OC(C)C)cc12	Nonstructural protein 5B	IC50	Hepatitis C virus	-	≤0.5 µM
COc1nc(Nc2ccc3[nH]ncc3c2)nc(N2CCOCC2)n1	DNA polymerase	inhibition	Hepatitis B virus	0.01 µg/mL	30%
CC[C@@H](C=O)NC(=O)[C@@H]1C[C@@H](OCc2ccccc2)CN1C(=O)[C@@H](NC(=O)C(OC)c1ccccc1)C(C)C	NS3 protease	Ki	Hepatitis C virus	-	>100 µM
COc1nc(Nc2ccc3cn[nH]c3c2)nc(N2CCN(CCO)CC2)n1	DNA polymerase	inhibition	Hepatitis B virus	0.01 µg/mL	3%
Cc1nn(-c2ccccc2)c(C)c1-c1ccc2cc(-c3nc4cc(C(=O)O)ccc4n3C3CCCCC3)ccc2n1	NS5B polymerase	inhibition	Hepatitis C virus	33 µM	99.74%